A mixed list of measured activities; the numbers were collected in NIAID ChemDB.

Shared fields: tests in culture; agent: HIV-1; cells: MT-4; read-out: EC95

ECn is the concentration giving n% inhibition of infection, replication or growth. An empty or dashed field is not shown. Rows are shuffled and stem from different studies.

COc1cncc(-c2cnc(C(C)(C)N3CCN(C[C@@H](O)C[C@@H](Cc4nnc(C)o4)C(=O)N[C@H]4c5ccccc5OC[C@H]4O)[C@H](C(=O)NCC(F)(F)F)C3)o2)c1 ; strain or isolate: Q-60 Clinical isolate ; changes: PR-L10I N37S R41K M46I I54V I62V L63P A71V V77I V82A L90M I93L ; method: p24 ; result: >1 µM
O=C(N[C@H]1c2ccccc2OC[C@H]1O)[C@H](Cc1cccnc1)C[C@H](O)CN1CCN(Cc2ccn(-c3ccc(Cl)cc3)c2)C[C@H]1C(=O)NCC(F)(F)F ; strain or isolate: K-60C Clinical isolate ; changes: PR-L10I M46I I54V Q58E L63P I64V V77I V82F I84V L90M I93L ; method: p24 ; result: 0.015 µM
O=C(N[C@H]1c2ccccc2OC[C@H]1O)[C@H](Cc1nnco1)C[C@H](O)CN1CCN(Cc2ccc(-c3ccc(Cl)cc3)o2)C[C@H]1C(=O)NCC(F)(F)F ; strain or isolate: Q-60 Clinical isolate ; changes: PR-L10I N37S R41K M46I I54V I62V L63P A71V V77I V82A L90M I93L ; method: p24 ; result: 0.031 µM
O=C(N[C@H]1c2ccccc2OCC1O)[C@H](Cc1cccnc1)C[C@H](O)CN1CCN(Cc2ccc(-c3ccccc3)o2)C[C@H]1C(=O)NCC(F)(F)F ; strain or isolate: Q-60C Clinical isolate ; changes: PR-L10I N37S R41K M46I I54V I62V L63P A71V V77I V82A L90M I93L ; method: p24 ; result: ≤0.008 µM
CCCc1nnc(C[C@H](C[C@H](O)CN2CCN(Cc3ccc(-c4ccc(Cl)cc4)o3)C[C@H]2C(=O)NCC(F)(F)F)C(=O)N[C@H]2c3ccccc3OC[C@H]2O)o1 ; strain or isolate: V-18 Clinical isolate ; changes: PR-L10I M36I N37D M46I R57K L63P A71V G73S I84V L90M I93L ; method: p24 ; result: 0.125 µM
Cc1cc(C)c(-n2nnnc2SCC(=O)Nc2cccc(F)c2C#N)c(C)c1 ; method: p24 ; result: <10 µM
CC(C)(C)NC(=O)[C@@H]1C[C@@H]2CCCC[C@@H]2CN1C[C@@H](O)[C@H](Cc1ccccc1)NC(=O)[C@H](CC(N)=O)NC(=O)c1ccc2ccccc2n1 ; strain or isolate: NL4-3 ; changes: PR-L10R ; method: p24 ; result: 0.05 µM
CC(C)=CCN1Cc2cc(Cl)cc3[nH]c(=S)n(c23)C[C@@H]1C ; changes: RT-M41L T215Y K101E ; result: >3 µM
O=C(N[C@H]1c2ccccc2OC[C@H]1O)[C@H](Cc1cccnc1)C[C@H](O)CN1CCN(Cc2ccn(-c3ccc(Cl)c(Cl)c3)c2)C[C@H]1C(=O)NCC(F)(F)F ; strain or isolate: Q-60C Clinical isolate ; changes: PR-L10I N37S R41K M46I I54V I62V L63P A71V V77I V82A L90M I93L ; method: p24 ; result: ≤0.008 µM
COc1ncccc1NC(=O)CSc1nnnn1-c1c(C)cc(C)cc1C ; method: p24 ; result: <10 µM
Cc1nnc(C[C@H](C[C@H](O)CN2CCN(C(C)(C)c3ncc(-c4ccc(F)cc4)o3)C[C@H]2C(=O)NCC(F)(F)F)C(=O)N[C@H]2c3ccccc3OC[C@H]2O)o1 ; strain or isolate: Q-60 Clinical isolate ; changes: PR-L10I N37S R41K M46I I54V I62V L63P A71V V77I V82A L90M I93L ; method: p24 ; result: 0.031 µM
CCc1cc(NCc2nc3ccccc3o2)c(=O)[nH]c1C ; strain or isolate: A17 ; method: p24 ; result: 100 µM
Cc1cc(C)c(-n2nnnc2SCC(=O)Nc2cc([N+](=O)[O-])ccc2Cl)c(C)c1 ; method: p24 ; result: <10 µM
O=C(N[C@H]1c2ccccc2OC[C@H]1O)[C@H](Cc1cccnc1)C[C@H](O)CN1CCN(Cc2ccn(-c3cc(Cl)c(Cl)c(Cl)c3)c2)C[C@H]1C(=O)NCC(F)(F)F ; strain or isolate: Q-60C Clinical isolate ; changes: PR-L10I N37S R41K M46I I54V I62V L63P A71V V77I V82A L90M I93L ; method: p24 ; result: ≤0.008 µM
O=C1N(Cc2ccc(CO)cc2)[C@H](Cc2ccccc2)[C@H](O)[C@@H](O)[C@@H](Cc2ccccc2)N1Cc1ccc(CO)cc1 ; strain or isolate: NL4-3 ; changes: PR-L63P V82T ; method: p24 ; result: 0.4 µM
Cc1ccnc2c1NC(=O)c1cccnc1N2C1CC1 ; strain or isolate: rHXB2 ; method: p24 ; result: 0.1 µM
CCCc1nnc(C[C@H](C[C@H](O)CN2CCN(C(C)(C)c3ncc(-c4ccc(Cl)cc4)o3)C[C@H]2C(=O)NCC(F)(F)F)C(=O)N[C@H]2c3ccccc3OC[C@H]2O)o1 ; strain or isolate: NL4-3 WT ; method: p24 ; result: ≤0.008 µM
Cc1cccc(-n2ccc(CN3CCN(C[C@@H](O)C[C@@H](Cc4cccnc4)C(=O)N[C@H]4c5ccccc5OC[C@H]4O)[C@H](C(=O)NCC(F)(F)F)C3)c2)c1 ; strain or isolate: Q-60C Clinical isolate ; changes: PR-L10I N37S R41K M46I I54V I62V L63P A71V V77I V82A L90M I93L ; method: p24 ; result: ≤0.008 µM
Cc1cc(C)c(-n2nnnc2SCC(=O)Nc2ccc(C)cc2Br)c(C)c1 ; method: p24 ; result: <10 µM
O=C(N[C@H]1c2ccccc2OC[C@H]1O)[C@H](Cc1cccnc1)C[C@H](O)CN1CCN(Cc2ccn(-c3ccccc3)c2)C[C@H]1C(=O)NCC(F)(F)F ; strain or isolate: V-18C Clinical isolate ; changes: PR-L10I M36I N37D M46I R57K L63P A71V G73S I84V L90M I93L ; method: p24 ; result: ≤0.008 µM
Cc1nnc(C[C@H](C[C@H](O)CN2CCN(C(C)(C)c3ncc(-c4ccc(Cl)cc4)o3)C[C@H]2C(=O)NCC(F)(F)F)C(=O)N[C@H]2c3ccccc3OC[C@H]2O)o1 ; strain or isolate: NL4-3 WT ; method: p24 ; result: 0.25 µM
N#Cc1cccc(-n2ccc(CN3CCN(C[C@@H](O)C[C@@H](Cc4cccnc4)C(=O)N[C@H]4c5ccccc5OC[C@H]4O)[C@H](C(=O)NCC(F)(F)F)C3)c2)c1 ; strain or isolate: Q-60C Clinical isolate ; changes: PR-L10I N37S R41K M46I I54V I62V L63P A71V V77I V82A L90M I93L ; method: p24 ; result: 0.031 µM
CCCc1nnc(C[C@H](C[C@H](O)CN2CCN(C(C)(C)c3ncc(-c4ccc(F)cc4)o3)C[C@H]2C(=O)NCC(F)(F)F)C(=O)N[C@H]2c3ccccc3OC[C@H]2O)o1 ; strain or isolate: Q-60 Clinical isolate ; changes: PR-L10I N37S R41K M46I I54V I62V L63P A71V V77I V82A L90M I93L ; method: p24 ; result: ≤0.008 µM
O=C(N[C@H]1c2ccccc2OC[C@H]1O)[C@H](Cc1cccnc1)C[C@H](O)CN1CCN(Cc2ccn(-c3cccc(Cl)c3)c2)C[C@H]1C(=O)NCC(F)(F)F ; strain or isolate: V-18C Clinical isolate ; changes: PR-L10I M36I N37D M46I R57K L63P A71V G73S I84V L90M I93L ; method: p24 ; result: ≤0.008 µM
Cc1cn([C@H]2C[C@H](N=[N+]=[N-])[C@@H](CO)O2)c(=O)[nH]c1=O ; strain or isolate: IIIB ; method: p24 ; result: 0.025 µM
COC(=O)c1ccccc1NC(=O)CSc1nnnn1-c1cccc2ccccc12 ; method: p24 ; result: <10 µM
O=C(N[C@H]1c2ccccc2OC[C@H]1O)[C@H](Cc1cccnc1)C[C@H](O)CN1CCN(Cc2ccn(-c3ccc(F)c(F)c3F)c2)C[C@H]1C(=O)NCC(F)(F)F ; strain or isolate: K-60C Clinical isolate ; changes: PR-L10I M46I I54V Q58E L63P I64V V77I V82F I84V L90M I93L ; method: p24 ; result: 0.015 µM

For reference, 4 entries again:

SMILES | strain or isolate | changes | method | result
O=C1N(Cc2ccc(CO)cc2)[C@H](Cc2ccccc2)[C@H](O)[C@@H](O)[C@@H](Cc2ccccc2)N1Cc1ccc(CO)cc1 | NL4-3 | PR-L63P V82T | p24 | 0.4 µM
CCc1cc(NCc2nc3ccccc3o2)c(=O)[nH]c1C | A17 |  | p24 | 100 µM
COc1cncc(-c2cnc(C(C)(C)N3CCN(C[C@@H](O)C[C@@H](Cc4nnc(C)o4)C(=O)N[C@H]4c5ccccc5OC[C@H]4O)[C@H](C(=O)NCC(F)(F)F)C3)o2)c1 | Q-60 Clinical isolate | PR-L10I N37S R41K M46I I54V I62V L63P A71V V77I V82A L90M I93L | p24 | >1 µM
CC(C)(C)NC(=O)[C@@H]1C[C@@H]2CCCC[C@@H]2CN1C[C@@H](O)[C@H](Cc1ccccc1)NC(=O)[C@H](CC(N)=O)NC(=O)c1ccc2ccccc2n1 | NL4-3 | PR-L10R | p24 | 0.05 µM